Values from PubChem BioAssay AID1259414 (Drosophila RNAi Screening Center, 2018)

Purpose: 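Fly genes that alter Wolbachia amount inside host cells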 (primary screen)
Cell system: Drosophila JW18 cells infected with Wolbachia
Reagent: long dsRNA against Drosophila genes, 0.25 µg dsRNA per well of a 384-well plate
Duration: 5 days
Treatment: cells persistently infected with Wolbachia before knock-down; no added drug
Measured: 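Automated imaging of bacterial rRNA staining divided by host cell count, reported as plate-normalised robust z-score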
Direction: Wolbachia per cell robust z: higher = more Wolbachia per host cell than the plate typical
Active means: 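Hit when robust z is 1.5 or more, or -1.5 or less, in at least two of three replicates; excludes dsRNAs with several or no targets, genes not expressed in JW18 and well A1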
In all, the deposit lists about 24,000 reagents; shown is a random part of those that have a named target and a result. Over the whole deposit, about 1,210 (5%) got an active call. 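Inactive calls also include excluded dsRNAs with several or no targets, genes unexpressed in JW18, and well A1, regardless of score.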

CG31643 [DRSC00906]
- Wolbachia per cell robust z, rep 1: -0.281
- Wolbachia per cell robust z, rep 2: -0.85
- Wolbachia per cell robust z, rep 3: -0.631
- Call: inactive

CG31643 [DRSC41452]
- Wolbachia per cell robust z, rep 1: 0.238
- Wolbachia per cell robust z, rep 2: -1.9
- Wolbachia per cell robust z, rep 3: 0.636
- Call: inactive

pnr [DRSC17027]
- Wolbachia per cell robust z, rep 1: 0.243
- Wolbachia per cell robust z, rep 2: 0.147
- Wolbachia per cell robust z, rep 3: 0.612
- Call: inactive

pnr [DRSC25347]
- Wolbachia per cell robust z, rep 1: 1.13
- Wolbachia per cell robust z, rep 2: 0.142
- Wolbachia per cell robust z, rep 3: 0.374
- Call: inactive

betaTub65B [DRSC11393]
- Wolbachia per cell robust z, rep 1: 0.524
- Wolbachia per cell robust z, rep 2: 0.0688
- Wolbachia per cell robust z, rep 3: -0.702
- Call: inactive

CG6928 [DRSC10749]
- Wolbachia per cell robust z, rep 1: 1.2
- Wolbachia per cell robust z, rep 2: -0.176
- Wolbachia per cell robust z, rep 3: -0.96
- Call: inactive

Next part (2 carried over from the part before).
betaTub65B [DRSC11393]
- Wolbachia per cell robust z, rep 1: 0.524
- Wolbachia per cell robust z, rep 2: 0.0688
- Wolbachia per cell robust z, rep 3: -0.702
- Call: inactive

CG6928 [DRSC10749]
- Wolbachia per cell robust z, rep 1: 1.2
- Wolbachia per cell robust z, rep 2: -0.176
- Wolbachia per cell robust z, rep 3: -0.96
- Call: inactive

Cyp313a2 [DRSC16625]
- Wolbachia per cell robust z, rep 1: 0.204
- Wolbachia per cell robust z, rep 2: 1.09
- Wolbachia per cell robust z, rep 3: -6.4
- Call: inactive

CG3626 [DRSC18318]
- Wolbachia per cell robust z, rep 1: -0.111
- Wolbachia per cell robust z, rep 2: 0.406
- Wolbachia per cell robust z, rep 3: 0.158
- Call: inactive

CG3626 [DRSC26443]
- Wolbachia per cell robust z, rep 1: -0.349
- Wolbachia per cell robust z, rep 2: -0.116
- Wolbachia per cell robust z, rep 3: 1.82
- Call: inactive

CG15577 [DRSC18065]
- Wolbachia per cell robust z, rep 1: -1.72
- Wolbachia per cell robust z, rep 2: -0.00881
- Wolbachia per cell robust z, rep 3: -0.793
- Call: inactive

CG17575 [DRSC06682]
- Wolbachia per cell robust z, rep 1: -1.08
- Wolbachia per cell robust z, rep 2: -0.934
- Wolbachia per cell robust z, rep 3: 0.0943
- Call: inactive

CG17575 [DRSC26534]
- Wolbachia per cell robust z, rep 1: -0.98
- Wolbachia per cell robust z, rep 2: -0.977
- Wolbachia per cell robust z, rep 3: 1.16
- Call: inactive

Gs1 [DRSC00753]
- Wolbachia per cell robust z, rep 1: 0.944
- Wolbachia per cell robust z, rep 2: 0.644
- Wolbachia per cell robust z, rep 3: 0.924
- Call: inactive

Gs1 [DRSC28916]
- Wolbachia per cell robust z, rep 1: 0.88
- Wolbachia per cell robust z, rep 2: -0.262
- Wolbachia per cell robust z, rep 3: 0.703
- Call: inactive

Acp26Ab [DRSC01856]
- Wolbachia per cell robust z, rep 1: -0.892
- Wolbachia per cell robust z, rep 2: -0.736
- Wolbachia per cell robust z, rep 3: 0.735
- Call: inactive

Acp26Ab [DRSC28398]
- Wolbachia per cell robust z, rep 1: 0.674
- Wolbachia per cell robust z, rep 2: 0.0187
- Wolbachia per cell robust z, rep 3: 0.203
- Call: inactive
